Record: PubChem BioAssay AID504761 (Drosophila RNAi Screening Center, 2011)

Assay: 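Insect host genes that dengue virus relies on to spread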 (primary screen)
Cell system: D.Mel-2 cells from Drosophila
Reagent: long dsRNA against Drosophila genes
Treatment: infection with dengue virus type 2; dose and infection time not stated
Measured: 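Cells stained for dengue envelope protein and imaged; percent of infected cells per well on duplicate plates, ranked by infection, with stained nuclei counted for cell number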
Reading the numbers: infection score: higher = more virus-infected cells
Hit rule: 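Very low infection ranking in both replicate wells (chance probability at most 0.065), then a retest showing infection dropped 1.5-fold or more at p below 0.05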
Calls: active = confirmed: knock-down lowers infection; inactive = not picked or not confirmed
The deposit covers about 22,000 reagents; below is a random part of those with a known target gene and a result. Over the whole deposit, 116 (0.52%) were called active. 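Calls depend on retest data that are not deposited; infection was ranked per plate without normalising between plates; the unit of the infection score is not given.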 A plus sign joins genes that one reagent is predicted to hit. Not all columns of the deposit are shown. The record does not give: the amount of reagent, the time to read-out.

target gene	amplicon	infection score, replicate 1	activity call
Cpr76Bc	DRSC11062	5.91	inactive
Cpr76Bc	DRSC27478	25.2	inactive
betaNACtes3	DRSC20183	22.3	inactive
7SLRNA:CR42652 + 7SLRNA:CR32864	DRSC22968	5.05	inactive
CG10481	DRSC02063	19.1	inactive
beta4GalT7	DRSC14385	0.7	inactive
CG10734	DRSC05998	9.78	inactive
CG3777	DRSC18489	7.36	inactive
CG3777	DRSC24661	7.76	inactive
CG32652 (retired record)	DRSC18942	35.2	inactive
CG32652 (retired record)	DRSC22662	3.71	inactive
CG32652 (retired record)	DRSC27195	25.8	inactive
CG16935	DRSC06638	4.53	inactive
Setd3	DRSC17840	1.09	inactive
Setd3	DRSC18269	2	inactive

Laid out differently: entries from further up.
7SLRNA:CR42652 + 7SLRNA:CR32864 [DRSC22968] → infection score, replicate 1 = 5.05; activity call = inactive
CG10481 [DRSC02063] → infection score, replicate 1 = 19.1; activity call = inactive
beta4GalT7 [DRSC14385] → infection score, replicate 1 = 0.7; activity call = inactive

More results follow.
target gene	amplicon	infection score, replicate 1	activity call
Ir60b	DRSC04217	4.14	inactive
Ns3	DRSC18607	1.83	inactive
Ns3	DRSC25847	3.73	inactive
Gad1	DRSC08661	12.1	inactive
Gad1	DRSC27052	10.5	inactive
Cyp9b2	DRSC07390	7.16	inactive
Cyp9b2	DRSC24835	4.35	inactive
Nup62	DRSC06970	7.81	inactive
CG33090	DRSC01908	12.7	inactive
CG33090	DRSC27923	17.3	inactive
DIP-iota	DRSC02140	7.9	inactive
DIP-iota	DRSC23965	4.85	inactive
Klp54D	DRSC07450	8.24	inactive
CG1999	DRSC18199	1.8	inactive
CG1999	DRSC29137	0.84	inactive
CG32830 (retired record)	DRSC01162	2.45	inactive
CG32830 (retired record)	DRSC23151	2.42	inactive
CG18549	DRSC15347	1.73	inactive
CG18549	DRSC28847	5.52	inactive
achi	DRSC07276	5.17	inactive
achi	DRSC24803	16.5	inactive
5-HT7	DRSC12635	2.51	inactive
5-HT7	DRSC24891	7.66	inactive
CG13540	DRSC04182	14.9	inactive
